Pooled drug test results. Numbers come from NIAID ChemDB, via PubChem.

Shared fields: tests in culture; organism: Hepatitis C virus; endpoint: EC50

Blank or dashed fields: not listed here. ECn: concentration that inhibits the pathogen or its effect by n%. Two numbers with a dash give a range or band. Lines come from different laboratories, so protocols vary.

smiles	strain	changes	cells	method	conditions	result
CCCCCCCC(=O)Oc1cccc(O)c1C(=O)NC(=O)NC1c2ccccc2-c2ccccc21	JFH1-2a	Wild type	Huh7.5.1	luciferase		0.27 µM
COC(=O)N[C@@H](C(=O)N1CCC[C@H]1C(=O)Cc1ccc(-c2ccc(NC(=O)[C@@H]3CCCN3C(=O)[C@H](NC(=O)OC)C(C)C)cc2)cc1)C(C)C	GT2a		Huh7.5.1	luciferase / reporter gene		0.015 µM
O=C1Cn2c(c(C3CCCCC3)c3ccc(C(=O)NS(=O)(=O)N4CCN(c5ccccc5)CC4)cc32)-c2ccccc2N1			Huh7	replicon		1–10 µM
CS(=O)(=O)N(CCO)c1cccc(-c2ccc3nc(NCc4ccc(F)cc4)nc(NCC(F)(F)F)c3n2)c1				replicon		<0.1 µM
Cn1c(=O)cc(Sc2ccc(F)cc2)c2ccccc21			Huh-Luc-Neo	luciferase / replicon		1–10 µM
O=C(O)c1ccc2c(C3CCCCC3)c3n(c2c1)CCCc1ocnc1-3			Huh7	replicon		>10 µM
OC[C@H]1O[C@@H](n2cnc3c(/C=C/N4CCSC4)ncnc32)[C@H](O)[C@@H]1O	1b		Huh7 (MT-4)	replicon	genotype 1b	3 µM
C/C(=C\c1cn(CCN2CCOCC2)c2ccc(C#N)cc12)C(=O)Nc1ccc(C(C)(C)C)cc1	2a J6/JFH-1		Huh7.5	luciferase / reporter gene		25 µM
O=C(Cc1ccc(-c2ccc(NC(=O)[C@@H]3CCCN3C(=O)[C@H]3CCCO3)cc2)cc1)[C@@H]1CCCN1C(=O)[C@H]1CCCO1	GT2a		Huh7.5.1	luciferase / reporter gene		0.4 µM
C=CC1=C(C)C2=NC1=CC1=NC(=CC3=C(C)C4=C(O)CC(=C5NC(=C2)[C@@H](C)[C@@H]5CCC(=O)O)C4=N3)C(CC)=C1C	J6/JFH1-P47		Huh7.5			0.2 µg/mL
Nc1ncnc2c1ncn2C1C[C@H]2C[C@@H]1c1cscc12	1b		Huh	replicon		9 µM
Cc1ccc2c(c1)c(Sc1ccc(N)cc1)cc(=O)n2C			Huh-Luc-Neo	luciferase / replicon		<1 µM
CCCOc1ccc(-c2cc(C[n+]3cc4[nH]c(-c5cccc(F)c5F)nc4cn3)on2)c(C(F)(F)F)c1	Genotype 1A		Huh-luc/neo-ET	replicon		0.022 µM
CCOc1nc(NCc2ccc(F)cc2)nc2ccc(-c3ccc(NC(=O)CO)cc3)nc12				replicon		<0.1 µM
CC(C)(C)c1ccc(NC(=O)/C(F)=C\c2c[nH]c3ccccc23)cc1	2a J6/JFH-1		Huh7.5	luciferase / reporter gene		4.7 µM
CC1CCC(C(=O)N(c2cc(-c3ccc(NC(=O)c4ccoc4)cc3)sc2C(=O)O)C(C)C)CC1	1b			replicon		<0.5 µM
Nc1ncnc2c1ncn2C1C[C@H]2C[C@@H]1[C@@H]1CSC[C@H]21	1b		Huh	replicon		81 µM
Cc1ccc(Sc2cc(=O)n(C)c3ncccc23)cc1			Huh-Luc-Neo	luciferase / replicon		<1 µM
CC1CCC(C(=O)N(c2cc(-c3ccc(NC(=O)c4ccc(CO)o4)cc3)sc2C(=O)O)C(C)C)CC1	1a			replicon		<0.5 µM
COc1cc(N2CCOCC2)ccc1Nc1ncnc2ccc(-c3nccs3)cc12	1b		Huh	luciferase		<1 µM
Clc1ncnc2c1ncn2C1C[C@H]2C[C@@H]1c1ccsc12	1b		Huh	replicon		21 µM
CC1CCC(C(=O)N(CC2CC2)c2cc(-c3ccc(NC(=O)c4cscn4)cc3)sc2C(=O)O)CC1	1a			replicon		<0.5 µM
O=C(O)/C=C/c1ccc(NC(=O)C2(NC(=O)c3ccc4c(C5CCCCC5)c5n(c4c3)CCCCN(CCO)c3ccncc3-5)CCCC2)cc1			Huh7	replicon		0.01–1 µM
CC1CCC(C(=O)N(c2cc(-c3ccc(NC(=O)c4ccco4)nc3)sc2C(=O)O)C(C)C)CC1	1a			replicon		<0.5 µM
O=C(NS(=O)(=O)Cc1ccccc1)c1ccc2c(C3CCCCC3)c3n(c2c1)CC=Cc1ncccc1-3			Huh7	replicon		1–10 µM
CCOc1nc(NCc2ccc(S(N)(=O)=O)cc2)nc2ccc(-c3ccc(F)c(NS(=O)(=O)C4CC4)c3)nc12				replicon		<0.1 µM
CCCOc1ccc(-c2cnc(Cn3cc4nc(-c5cccc(F)c5F)nc-4cn3)cn2)c(C(F)(F)F)c1	genotype 1b		Huh-luc/neo-ET	replicon		0.032 µM
COc1ccc2c(O[C@@H]3C[C@H]4C(=O)N[C@]5(C(=O)O)C[C@H]5/C=C\CCCCN(NC(=O)OC(C)(C)C)C(=O)[C@@H]4C3)cc(-c3ccccc3)nc2c1	1b		Huh7-Rep	luciferase		>0.01 µM
CC(C)(O)CNc1nc(NCc2ccc(F)cc2)nc2ccc(-c3ccc(F)cc3)nc12				replicon		<0.1 µM
CC1CCC(C(=O)N(c2cc(-c3ccc(NC(=O)c4ccco4)cc3)sc2C(=O)O)C(C)C)CC1	1a			replicon		<0.5 µM
Cn1c(=O)cc(Sc2ccc(N)cc2)c2ccccc21			Huh-Luc-Neo	luciferase / replicon		<1 µM
COC(=O)N[C@H](C(=O)N1CCC(c2ncc(-c3ccc(-c4ccc(-c5cnc(C6CCCN6C(=O)[C@@H](NC(=O)OC)C(C)C)[nH]5)cc4)cc3)[nH]2)C1)C(C)C			H77			0.000055 µM
CCOc1nc(NCc2ccc(F)cc2)nc2ccc(-c3ccc(N4CCC(O)C4=O)cc3)nc12				replicon		<0.1 µM
C/C(=C\c1cn(C(=O)OCc2ccccc2)c2ccccc12)C(=O)Nc1ccc(C(C)(C)C)cc1	2a J6/JFH-1		Huh7.5	luciferase / reporter gene		>100 µM
CS(=O)(=O)NC(=O)c1ccc2c(C3CCCCC3)c3n(c2c1)CC(C(=O)N1CCOCC1)=Cc1ccccc1-3			Huh7	replicon		0.01–1 µM
CCOc1nc(NCc2ccc(F)cc2)nc2ccc(-c3ccc(NC(=O)[C@H]4CCNC4)cc3)nc12				replicon		<0.1 µM
COC(=O)N[C@H](C(=O)N1CCCC1c1ncc(-c2ccc(-c3ccc(-c4cnc([C@@H]5CC(C)CN5C(=O)[C@@H](NC(=O)CO)C(C)C)[nH]4)cc3)cc2)[nH]1)C(C)C	1b	L28V	ET	luciferase		0.0000079 µM
COc1ncc(-c2cc(C[n+]3cc4[nH]c(-c5cccc(F)c5F)nc4cn3)on2)cn1	Genotype 1A		Huh-luc/neo-ET	replicon		50 µM
CN(Cc1ccc(C(=O)O)cc1)S(=O)(=O)NC(=O)c1ccc2c(C3CCCCC3)c3n(c2c1)CC(=O)Nc1ccccc1-3			Huh7	replicon		1–10 µM
COc1ccc2c(c1)c(/C=C(\C)C(=O)Nc1ccc(C(C)(C)C)cc1)cn2CCN(C)C	2a J6/JFH-1		Huh7.5	luciferase / reporter gene		>100 µM
Cn1c(=O)cc(Sc2ccccc2F)c2ccccc21			Huh-Luc-Neo	luciferase / replicon		1–10 µM
CCN(CC)[C@@H](C(=O)N1CCC[C@H]1C(=O)Cc1ccc(-c2ccc(NC(=O)[C@@H]3CCCN3C(=O)[C@@H](c3ccccc3)N(CC)CC)cc2)cc1)c1ccccc1	GT1b		Huh7.5.1	luciferase		0.00027 µM
Fc1cccc(-c2nc3cn[n+](Cc4cc(-c5ccc(C(F)(F)F)cc5)no4)cc3[nH]2)c1F	Genotype 1A		Huh-luc/neo-ET	replicon		0.065 µM
Cc1ccc2c(c1)c(Sc1ccc(Br)cc1)cc(=O)n2C			Huh-Luc-Neo	luciferase / replicon		<1 µM
CN(C)S(=O)(=O)NC(=O)c1ccc2c(C3CCCCC3)c3n(c2c1)C[C@H](C(=O)N1CCC(N2CCCC2)CC1)Cc1ccccc1-3			Huh7	replicon		0.01–1 µM
Cn1c(=O)cc(Sc2ccc(NC(=O)[C@H](Cc3ccccc3)NC(=O)OC(C)(C)C)cc2)c2ccccc21			Huh-Luc-Neo	luciferase / replicon		1–10 µM
CCOc1nc(NCc2ccc(F)cc2)nc2ccc(-c3ccc(C(=O)NC4CC4)cc3)nc12				replicon		<0.1 µM

3 of the rows above, restated:

| smiles | strain | changes | cells | method | conditions | result |
|---|---|---|---|---|---|---|
| Cn1c(=O)cc(Sc2ccccc2F)c2ccccc21 |  |  | Huh-Luc-Neo | luciferase / replicon |  | 1–10 µM |
| O=C1Cn2c(c(C3CCCCC3)c3ccc(C(=O)NS(=O)(=O)N4CCN(c5ccccc5)CC4)cc32)-c2ccccc2N1 |  |  | Huh7 | replicon |  | 1–10 µM |
| Nc1ncnc2c1ncn2C1C[C@H]2C[C@@H]1[C@@H]1CSC[C@H]21 | 1b |  | Huh | replicon |  | 81 µM |